Compound potency records, mixed from different reports. Data source: NIAID ChemDB in PubChem.

All rows: toxicity to cultured cells; read-out: CC50

Conditions beyond the fields shown may differ between rows. An empty or dashed field is not shown. CCn: concentration that lowers growth or viability of the cells by n%.

| SMILES | cells | method | result |
|---|---|---|---|
| Cc1cc(CCCCCCCOc2ccc(C3=NCCO3)cc2)on1 | WIS HELA | crystal violet | 50 µg/mL |
| CCn1c(-c2cccs2)c(C)c(=O)c2cc(C(C)C)ccc21 | HeLa S3 | MTT | >10 µg/mL |
| CCc1c(C(=O)Nc2ccc(F)c(C)c2)c(C)n(C)c1C(=O)C(=O)NC1CCN(c2cccnn2)CC1 | HepG2 | MTT | >30 µM |
| Cc1nc(-c2ccccc2)sc1NC(=O)NCCc1ccc2c(n1)NCCC2 | PBMC |  | 7.4 µM |
| O=C(NCc1ccc(Cl)cc1)c1cn2c3c(cc(CN4CCOCC4)cc3c1=O)OC(c1cccnc1)C2 | CBL | MTS | >18.8 µM |
| C=C1CN(S(=O)(=O)c2ccc(C)cc2)CCCN(CCC)CCCN(S(=O)(=O)c2ccc(C)cc2)C1 | SupT1 | trypan blue / propidium iodide | >75 µM |
| CCOC(=O)CNC1=C(C#N)C2=C(CCC/C2=C\c2ccncc2)C(c2ccncc2)S1 | KB | MTT | 48.5 µM |
| COc1cc2c(=O)c(C)c(-c3ccccc3)n(C)c2cc1C(C)C | HeLa S3 | MTT | >10 µg/mL |
| N=c1c2c(ncn1Nc1ccccc1)SC(c1ccncc1)C1=C2/C(=C/c2ccncc2)CCC1 | MGC-803 | MTT | 12.2 µM |
| NC(=O)NCCc1ccc2c(n1)NCCC2 | PBMC |  | 50 µM |
| Cc1cc(NC(=O)c2c(C)c(C(=O)C(=O)NC3(C)CCC(O)CC3)n(C)c2-c2ccccn2)ccc1F | HepG2 | MTT | >30 µM |
| O=C1Sc2nc3c(c(=S)n2C/C1=C/c1ccc(Cl)cc1)C1=C(CCC/C1=C\c1ccncc1)C(c1ccncc1)S3 | MGC-803 | MTT | 18.9 µM |
| Cn1cc(C(=O)NCc2ccc(Cl)cc2)c(=O)c2cc(CN3CCOCC3)ccc21 | CBL | MTS | >23.5 µM |
| Cc1cc(CCCCCCCOc2ccc3c(c2)[nH]c2ccccc23)on1 | WIS HELA | crystal violet | 25 µg/mL |
| O=C(NCCc1ccc2c(n1)NCCC2)n1cnc2ccccc21 | PBMC |  | 50 µM |
| O=C1Cn2c(nc3c(c2=S)C2=C(CCC/C2=C\c2ccncc2)C(c2ccncc2)S3)S1 | CNE-2 | MTT | 45.1 µM |
| O=C(Nc1ccc(Oc2ccccc2)nc1)c1c(O)c2cccnc2n(O)c1=O | HeLa |  | <100 µM |
| Cc1cc(NC(=O)c2c(C3CC3)c(C(=O)C(=O)NC3CCC(S(C)(=O)=O)CC3)n(C)c2C)ccc1F | HepG2 | MTT | >30 µM |
| CCC1(Cc2ccccc2)OS(=O)(=O)C=C1OCc1ccccc1 | HEL fibroblasts |  | >200 µM |
| CC1(C)C[C@H](O)C[C@](C)(CNC(=S)c2cc(Cl)ccc2O)C1 | MDCK |  | 5.5 µg/mL |
| CCCc1cc(=O)oc2cc(OCC(C)(C)C(=O)O)c3c(c12)OC(C)(C)C=C3 | CV-1 | neutral red | 20 µg/mL |
| O=C(NCCc1ccc2c(n1)NCCC2)NCc1cccnc1 | PBMC |  | 50 µM |
| Cc1ccc(/C=C2/Cn3c(nc4c(c3=S)C3=C(CCC/C3=C\c3ccncc3)C(c3ccncc3)S4)SC2=O)cc1 | MCF-7 | MTT | 21.4 µM |
| CCCc1cc(=O)oc2c3c(c4c(c12)OC(C)(C)C=C4)O[C@H](C)[C@H](C)C3=O | CV-1 |  | 10 µg/mL |
| CCN(CC)CCNc1cc(C)nc2c1ccc1c2ccc2c(NCCN(CC)CC)cc(C)nc21 | Macrophage line RAW 264.7 | MTT | 0.00348 µM |
| C=C1CN(S(=O)(=O)c2ccc(C)cc2)CCCN(CC(C)C)CCCN(S(=O)(=O)c2ccc(C)cc2)C1 | SupT1 | trypan blue / propidium iodide | >75 µM |
| CC1(C)C[C@@H](O)C[C@](C)(CNC(=O)c2cc(Cl)ccc2O)C1 | MDCK |  | >100 µg/mL |
| Cc1cc(CCCCCCCOc2cc(C)nc3ccccc23)on1 | WIS HELA | crystal violet | 50 µg/mL |
| CCCc1cc(=O)oc2c3c(c4c(c12)OC(C)(C)[C@H](O)[C@@H]4O)O[C@H](C)[C@@H](C)[C@@H]3O | CV-1 |  | >100 µg/mL |
| O=c1[nH]c(=S)[nH]c2c3c([nH]c12)SC(c1ccncc1)C1=C3/C(=C/c2ccncc2)CCC1 | CNE-2 | MTT | 14.1 µM |
| Cc1cc(NC(=O)c2c(C)c(C(=O)C(=O)NC3CCC(S(C)(=O)=O)CC3)n(C)c2C2CCCCC2)ccc1F | HepG2 | MTT | >30 µM |
| CCn1c(-c2ccccc2)c(C)c(=O)c2c(Cl)c(OCC(C)C)ccc21 | HELA-OHIO | MTT | >4 µg/mL |
| CCC1(Cc2ccccc2)OS(=O)(=O)C=C1OCC=C(C)C | HEL fibroblasts |  | 112 µM |
| Cc1cc(CCCCCCCOc2ccc(N3CCNC3)cc2)on1 | WIS HELA | crystal violet | 10 µg/mL |
| O=C1/C(=C/c2ccc(-c3cc(C(F)(F)F)ccc3Cl)o2)SC(=S)N1Cc1ccc(Cl)cc1 | MCF-7 | MTT | 1.13 µM |
| Cc1ccc(C)c(C(=S)NC[C@@]2(C)C[C@@H](O)CC(C)(C)C2)c1 | MDCK |  | 30 µg/mL |
| Cc1c(-c2ccccc2)n(-c2ccccc2)c2ccc(C(C)C)cc2c1=O | HELA-OHIO | MTT | >5 µg/mL |
| O=C(NCc1cccs1)c1nn2c(c1Cl)N[C@H](c1ccco1)C[C@@H]2C(F)(F)F | Caco2 | ATP | >100 µM |
| O=c1cc(Nc2ccccc2-c2ccccc2)c2cccnc2n1O | HeLa |  | <100 µM |
| Cc1cc(NC(=O)c2c(C3CC3)c(C(=O)C(=O)NCC(C)(C)O)n(C)c2C)ccc1F | HepG2 | MTT | >30 µM |
| CCc1ccc(CCN=C2NC(=O)/C(=C/c3ccc(-c4ccc(C(=O)O)c(O)c4)o3)S2)cc1 | HEK 293 | MTT | 3.4 µM |
| O=C(NCCc1ccc2c(n1)NCCC2)NC1CCCC1 | PBMC |  | 50 µM |
| CCOC1N=C2C3=C(N=CN2N1c1ccccc1)SC(c1ccncc1)C1=C3/C(=C/c2ccncc2)CCC1 | CNE-2 | MTT | 13.2 µM |
| CC(C)(C)C(=O)Nc1cccc(CCNC(=O)NCc2ccc(Cl)c(Cl)c2)n1 | PBMC |  | 11.4 µM |
| CCCc1cc(=O)oc2cc(OC(=O)C(C)(C)C)cc(OC(=O)C(C)(C)C)c12 | CV-1 |  | 12 µg/mL |
| Nc1cc(=O)n(O)c2ncccc12 | HeLa |  | <100 µM |
| COc1ccc2c(O[C@@H]3C[C@H]4C(=O)N[C@]5(C(=O)NS(=O)(=O)C6CC6)C[C@H]5/C=C\CCCCN(C)C(=O)[C@@H]4C3)cc(-c3nc(C(C)C)cs3)nc2c1C | Huh7-SG1a H77 |  | >42 µM |
| CCC/C(=C/C(=O)OC)c1c(O)c2c(c3c1OC(C)(C)[C@H](O)[C@H]3O)O[C@H](C)[C@@H](C)[C@@H]2O | CV-1 |  | 15 µg/mL |
| O=C(NCCc1ccc2c(n1)NCCC2)Nc1cccc(C(F)(F)F)c1 | PBMC |  | 25 µM |
| Cc1cc(NC(=O)c2c(C3CC3)c(C(=O)C(=O)NC3(C)CCC(O)CC3)n(C)c2C)ccc1F | HepG2 | MTT | >30 µM |
| O=C1CCn2c(nc3c(c2=S)C2=C(CCC/C2=C\c2ccncc2)C(c2ccncc2)S3)S1 | MGC-803 | MTT | 43.2 µM |
| CCOC(=O)c1c(-c2ccc(CCc3ccc(N)cc3)cc2)c2cccnc2n(O)c1=O | HeLa |  | <100 µM |
| Cc1cc(NC(=O)c2c(C)c(C(=O)C(=O)Nc3cccnc3N3CCOCC3)n(C)c2C)ccc1F | HepG2 | MTT | >30 µM |
| O=C(NCCc1cccc(-n2ccnc2)n1)NCc1ccc(Cl)c(Cl)c1 | PBMC |  | 6.1 µM |
| CC(C)=CCC/C(C)=C/CC/C(=C\CC/C(C)=C/C(=O)O)C(=O)O | BC | resazurin | >20 µg/mL |
| C=C1CN(S(=O)(=O)c2ccc(N)cc2)CCCN(Cc2ccccc2)CCCN(S(=O)(=O)c2ccc(N)cc2)C1 | SupT1 | trypan blue / propidium iodide | 49.2 µM |
| CCC1(Cc2ccccc2)OS(=O)(=O)C=C1OCC#N | HEL fibroblasts |  | >200 µM |
| NCc1ccccc1CNc1cc(=O)n(O)c2ncccc12 | HeLa |  | 0.14 µM |
| Cc1cc(NC(=O)c2c(C)c(C(=O)C(=O)NC3CCC(O)CC3)n(C)c2-c2ccccn2)ccc1F | HepG2 | MTT | >30 µM |
| Cc1cnsc1CCCCCCOc1ccc2ccccc2c1 | WIS HELA | crystal violet | 50 µg/mL |
| O=C1N=C(N2CCOCC2)S/C1=C\c1ccc(-c2ccc(C(=O)O)c(O)c2)o1 | MCF-7 | MTT | 21 µM |
| Cc1c(-c2ccccc2)n(-c2ccc(Cl)cc2)c2ccc(C(C)C)cc2c1=O | HELA-OHIO | MTT | >1 µg/mL |
| Cc1cc(CCCCCCCON2C(=O)COc3c2ccc2ccccc32)on1 | WIS HELA | crystal violet | >50 µg/mL |
| O=C(CNCCc1ccc2c(n1)NCCC2)Nc1cccc(F)c1 | PBMC |  | 50 µM |
| COc1cc([C@@H]2CCc3ccc(O)cc3O2)ccc1O | NCI-H187 | resazurin | >20 µg/mL |
| COC(=O)C1=C2Nc3ccccc3[C@@]23CCN2C[C@]4(C[C@@H]5C[C@]67CC(=O)O[C@H]6CCC6NC[C@@]8(c9cccc(OC)c9N(C4)[C@@]58O)[C@@H]67)[C@@H]4OCC[C@]4(C1)[C@H]23 | Jurkat cells | absorbance | 11 µM |
| CCC1(Cc2ccccc2)OS(=O)(=O)C=C1OCc1ccc([N+](=O)[O-])cc1 | HEL fibroblasts |  | <200 µM |

Repeating the final 3 entries:

SMILES	cells	method	result
COc1cc([C@@H]2CCc3ccc(O)cc3O2)ccc1O	NCI-H187	resazurin	>20 µg/mL
COC(=O)C1=C2Nc3ccccc3[C@@]23CCN2C[C@]4(C[C@@H]5C[C@]67CC(=O)O[C@H]6CCC6NC[C@@]8(c9cccc(OC)c9N(C4)[C@@]58O)[C@@H]67)[C@@H]4OCC[C@]4(C1)[C@H]23	Jurkat cells	absorbance	11 µM
CCC1(Cc2ccccc2)OS(=O)(=O)C=C1OCc1ccc([N+](=O)[O-])cc1	HEL fibroblasts		<200 µM